Anti-infective test results gathered from many reports (values: NIAID ChemDB through PubChem).

All rows: growth or infection tests; agent: Staphylococcus aureus

Conditions beyond the fields shown may differ between rows.

smiles	strain or isolate	measure	value
CC[C@H]1OC(=O)[C@H](C)C(=O)[C@H](C)[C@@H](O[C@@H]2O[C@H](C)C[C@H](N(C)C)[C@H]2O)[C@@]2(C)C[C@@H](C)C(=NC(C)=O)[C@H](C)[C@@H](OC/C(=N\Oc3ccc(-c4nccs4)nc3)CO2)[C@]1(C)O	25923 (erythromycin-susceptible)	MIC	0.25 µg/mL
O=C1O[C@@H](COc2ccon2)CN1c1ccc(N2CC(O)C2)c(F)c1	122 (novobiocin-resistant)	MIC	16 µg/mL
CCCCCCCCCCCC[N+](C)(C)CSCCCC	ATCC 6538	MBC	14.2 µM
O=C(O)c1cn(C2CC2)c2cc(NCCCCCO)c(F)cc2c1=O	ATCC 6538P	MIC	12.5 µg/mL
N#Cc1ccc(N2CCN(c3ccc(N4C[C@H](COc5ccccn5)OC4=O)cc3F)CC2)nc1	078 (oxford)	MIC	1 µg/mL
CC(C)(N)CNc1cc2c(cc1F)c(=O)c(C(=O)O)cn2C1CC1	ATCC 5278 (methicillin-resistant)	MIC	25 µg/mL
CC[C@H]1OC(=O)[C@H](C)C(=O)[C@H](C)[C@@H](O[C@@H]2O[C@H](C)C[C@H](N(C)C)[C@H]2O)[C@@]2(C)C[C@@H](C)C(=NC(C)=O)[C@H](C)C(OC/C(=N\OCc3ccccc3)CO2)[C@]1(C)O	25923 (erythromycin-susceptible)	MIC	0.13 µg/mL
CC(O)CNc1cc2c(cc1F)c(=O)c(C(=O)O)cn2C1CC1	ATCC 6538P	MIC	>100 µg/mL
CNc1c(F)cc2c(=O)c(C(=O)O)cn(-c3cc(N)c(F)cc3F)c2c1C	209P	MIC	0.008 µg/mL
N#Cc1ccn(-c2ccc(N3C[C@H](COc4ccon4)OC3=O)cc2F)c1	004 (methicillin quinolone-resistant)	MIC	0.5 µg/mL
NCCCNc1cc2c(cc1F)c(=O)c(C(=O)O)cn2C1CC1	ATCC 6538P	MIC	>100 µg/mL
Cc1c(N)c(F)cc2c(=O)c(C(=O)O)cn(-c3cc(N)c(F)cc3F)c12	MR8736 (methicillin-resistant)	MIC	8 µg/mL
O=C(O)c1cn(C2CC2)c2cc(NCCCCO)c(F)cc2c1=O	ATCC 5278 (methicillin-resistant)	MIC	>100 µg/mL
CCCCCCCCCCCC[N+](C)(C)COCCC(C)C	ATCC33592	MBC	7.14 µM
Cc1c(NCCCO)c(F)cc2c(=O)c(C(=O)O)cn(-c3cc(N)c(F)cc3F)c12	209P	MIC	0.015 µg/mL
CCCCCCCCCCCC[N+](C)(C)COC(C)C	ATCC33592	MBC	18.6 µM
CC[C@H]1OC(=O)[C@H](C)C(=O)[C@H](C)[C@@H](O[C@@H]2O[C@H](C)C[C@H](N(C)C)[C@H]2O)[C@@]2(C)C[C@@H](C)C(=NC(C)=O)[C@H](C)[C@@H](OC/C(=N\OCCCc3ccccc3)CO2)[C@]1(C)O	27660 (erythromycin-resistant)	MIC	0.5 µg/mL
CNC(=O)N[C@@H]1CCN(c2ccc(N3C[C@H](CNc4ccon4)OC3=O)cc2F)C1	004 (methicillin quinolone-resistant)	MIC	0.5 µg/mL
CC(C)(O)CCCCNc1cc2c(cc1F)c(=O)c(C(=O)O)cn2C1CC1	ATCC 5278 (methicillin-resistant)	MIC	>100 µg/mL
CCCCCCCCCCCC[N+](C)(C)COCCCCCCCC	ATCC 6538	MBC	6.38 µM
CC[C@H]1OC(=O)[C@H](C)C(=O)[C@H](C)[C@@H](O[C@@H]2O[C@H](C)C[C@H](N(C)C)[C@H]2O)[C@@]2(C)C[C@@H](C)C(=NC(C)=O)[C@H](C)C(OC/C(=N/OCc3ccccc3)CO2)[C@]1(C)O	25923 (erythromycin-susceptible)	MIC	2 µg/mL
CCCCCCCCCCCC[N+](C)(C)COCCCCCCCCCCC	ATCC 6538	MBC	23 µM
CCCCN(CCCC)CCCNc1cc2c(cc1F)c(=O)c(C(=O)O)cn2C1CC1	ATCC 6538P	MIC	100 µg/mL